Single amino acid changes in Zika NS2B-NS3 and viral growth

Data from the supplement of Ni et al. 2025, doi:10.1038/s41467-025-63602-z.

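Pools of virus carrying all single amino acid changes were selected for growth in Huh-7.5 cells. Sequencing of three replicate libraries (two for positions 207-308) was averaged into one effect per change.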

Protein: NS2B and the protease part of NS3 of Zika virus strain MR766. Positions count along the chain below; NS2B spans 2-131 and NS3 starts at 132.
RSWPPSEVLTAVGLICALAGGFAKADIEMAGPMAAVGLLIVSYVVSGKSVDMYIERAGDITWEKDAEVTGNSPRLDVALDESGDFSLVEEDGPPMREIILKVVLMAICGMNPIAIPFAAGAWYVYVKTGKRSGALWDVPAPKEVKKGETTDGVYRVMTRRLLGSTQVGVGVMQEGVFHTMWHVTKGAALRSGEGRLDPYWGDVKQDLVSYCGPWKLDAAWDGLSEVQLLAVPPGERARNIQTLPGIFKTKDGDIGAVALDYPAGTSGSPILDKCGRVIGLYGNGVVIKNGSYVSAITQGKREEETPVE

The number is log2 of the effect relative to wild type; negative values mean reduced growth, higher values better tolerance.
Each entry names the wild-type residue, its position and the residue put in its place.
All changes here are to glutamine.

mutation,log2 growth effect
V183Q,-4.54
T184Q,-5.78
K185Q,-3.05
G186Q,-4.84
A187Q,-4.77
A188Q,-4.71
L189Q,-6.41
R190Q,-4.90
S191Q,-4.47
G192Q,-3.53
E193Q,-0.57
G194Q,-5.65
R195Q,-6.02
L196Q,-6.34
D197Q,-5.27
P198Q,-3.54
Y199Q,-2.48
W200Q,-6.81
G201Q,-6.48
D202Q,-5.31
V203Q,-6.84
K204Q,-6.87
D206Q,-6.89
L207Q,-7.37
V208Q,-7.65
S209Q,-6.72
Y210Q,-6.54
C211Q,-0.92
G212Q,-7.11
P213Q,-3.70
W214Q,-7.59
K215Q,-2.91
L216Q,-6.62
D217Q,-4.88
A218Q,-4.65
A219Q,1.55
W220Q,-5.95
D221Q,-4.73
G222Q,-0.90
L223Q,-1.49
S224Q,-2.42
E225Q,-2.91
V226Q,-4.96
L228Q,-3.53
L229Q,-1.06
A230Q,-4.68
V231Q,-3.03
P232Q,0.18
P233Q,-5.12
G234Q,-4.08
E235Q,-1.36
R236Q,1.12
A237Q,0.59
R238Q,1.52
N239Q,-5.45
I240Q,-6.09
T242Q,-5.55
L243Q,-0.68
P244Q,-4.95
G245Q,-5.11
I246Q,-2.91
F247Q,-5.82
K248Q,-2.03
T249Q,-5.10
K250Q,-0.95
D251Q,-2.67
G252Q,-2.19
D253Q,-2.50
I254Q,-6.08
G255Q,-5.66
A256Q,-6.44
V257Q,-4.03
A258Q,-5.01
L259Q,-5.40
D260Q,-2.78
Y261Q,-1.18
P262Q,-3.90

The opening 9 entries, copied out:

- V183Q = -4.54
- T184Q = -5.78
- K185Q = -3.05
- G186Q = -4.84
- A187Q = -4.77
- A188Q = -4.71
- L189Q = -6.41
- R190Q = -4.90
- S191Q = -4.47

Position 1 still belongs to NS2A. In the paper, -1 or higher counts as tolerated.
Values above 0 are not proof of better growth: six high scorers were tested one by one, five grew less well than wild type and one about as well.
The region was split into three libraries (1-103, 104-206, 207-308).